Legend:
[1] = test system: O=[N+]([O-])c1ccc(OP(=O)(O)O)cc1; assay: purified protein; conditions: pH 8.0; 37.0 °C
[2] = test system: O=[N+]([O-])c1ccc(OP(=O)(O)Oc2ccc([N+](=O)[O-])cc2)cc1; assay: purified protein; conditions: pH 8.0; 37.0 °C

“rRv2577 (Rv2577, MapH) (Mycobacterium tuberculosis H37Rv)” gave a Km [1] of 82 µM, a kcat/Km [1] of 485 M⁻¹ s⁻¹ and a Km [2] of 60 µM. The kcat/Km [2] was 280 M⁻¹ s⁻¹.

From publication PMC7642983
